A mixed list of measured activities; the numbers were collected in NIAID ChemDB.

Common to all: tests in culture; organism: Mycobacterium tuberculosis

ECn: concentration that inhibits the pathogen or its effect by n%. Blank or dashed fields: not listed here. Zone: diameter of growth inhibition. Percent inhibition refers to the dose given; in toxicity tests it is the harm to the cells. MIC bound comes from a single tested concentration. Neighbouring rows are from separate reports. a–b is a range or a potency band. A number after MIC or MFC names an inhibition level or a share of isolates.

| SMILES | strain or isolate | read by | endpoint | dose | result |
|---|---|---|---|---|---|
| CCN1C(NNC(=O)c2cccnc2)=NS(=O)(=O)c2ccccc21 | Clinical isolates drug-resistant | - | MIC | - | >16 µg/mL |
| COc1ccc(/C=N/NC(=O)c2cccnc2)cc1 | - | - | MIC | - | 1–10 µg/mL |
| N#Cc1nc2cc(Cl)ccc2nc1Cl | H37Rv | - | inhibition | 12.5 µg/mL | 58% |
| [Na+].[O-]N=Nc1nc(-c2ccccn2)nc2ccccc12 | H37Rv | BACTEC | MIC bound | - | >12.5 µg/mL |
| N#CC(Nc1ccccc1)c1ccc(OCc2nc3ccccc3[nH]2)cc1 | H37Rv | resazurin | inhibition | 6.25 µg/mL | 62% |
| CC1(C)CCc2c(c3ccccc3c3nc(-c4cccc(C#N)c4)oc23)O1 | ATCC 35338 | resazurin | MIC | - | 17.6 µg/mL |
| Cc1cc(C)c(-n2nnnc2SC(C)C)c(C)c1 | H37Rv | - | MIC | - | 125 µM |
| N#Cc1nc2cc(C(F)(F)F)ccc2nc1Cl | H37Rv | - | EC50 | - | >12.5 µg/mL |
| CCCCSc1nnnn1-c1c(C)cc(C)cc1C | H37Rv | - | MIC | - | >1000 µM |
| Cc1[nH]n(C(=O)c2sc3ccc(Cl)cc3c2Cl)c(=O)c1N=Nc1c(Br)cc(Br)cc1Br | - | agar diffusion / agar | inhibition | 40 µg/mL | 22% |
| C[C@@H]([C@H](NC(=O)[C@H](Cc1ccc2ccccc2c1)NC(=O)N[C@@H](Cc1c[nH]c2ccccc12)C(=O)OCC(C)(C)C)C(=O)NC[C@H]1C[C@@H](O)[C@H](n2ccc(=O)[nH]c2=O)O1)N(C)C(=O)CN | H37Rv | resazurin / fluorescence | MIC99 | - | 0.044 µM |
| N#CC(Nc1ccc(F)cc1F)c1ccc(OCc2nc3ccccc3[nH]2)cc1 | H37Rv | resazurin | MIC | - | 0.05 µg/mL |
| O=C(CSc1nnc(-c2ccncc2)n1-c1ccccc1)c1ccccc1 | H37Rv | - | MIC | - | >6.25 µg/mL |
| COC(=O)[C@H](Cc1c[nH]c2ccccc12)NC(=O)N[C@@H](Cc1ccc2ccccc2c1)C(=O)N[C@H](C(=O)NC[C@H]1C[C@@H](O)[C@H](n2ccc(=O)[nH]c2=O)O1)[C@H](C)N(C)C(=O)CN | H37Rv | resazurin / fluorescence | MIC99 | - | 0.16 µM |
| Cc1c(N2CC3CCCNC3C2)c(F)cc2c(=O)c(C(=O)O)cn([C@@H]3C[C@@H]3F)c12 | 40 (RFP-susceptible) | - | MIC | - | 0.006 µg/mL |
| N#CC(Nc1cccc(F)c1)c1ccc(OCc2nc3ccccc3[nH]2)cc1 | H37Rv | resazurin | inhibition | 6.25 µg/mL | 90% |
| N#Cc1c(N)[n+]([O-])c2cc(C(F)(F)F)ccc2[n+]1[O-] | H37Rv (ATCC 27294) | resazurin | MIC | - | 39 µM |
| C[C@@H]1CN(c2c(F)c(N)c3c(=O)c(C(=O)O)cn(C4CC4)c3c2F)C[C@H](C)N1 | 23 strains (rifampicin-resistant) | - | MIC50 | - | 1.56 µg/mL |
| CCCCCCNC(=O)[C@H](Cc1c[nH]c2ccccc12)NC(=O)N[C@@H](CC1CCCCC1)C(=O)N[C@H](C(=O)NC[C@H]1C[C@@H](O)[C@H](n2ccc(=O)[nH]c2=O)O1)[C@H](C)N(C)C(=O)CN | H37Rv | resazurin / fluorescence | MIC50 | - | 0.115 µM |
| Cc1c(N2C[C@@H](N)C3(CC3)C2)c(F)cc2c(=O)c(C(=O)O)cn([C@@H]3C[C@@H]3F)c12 | 50 (RFP-resistant) | - | MIC | - | 0.1 µg/mL |
| CCN(CC)CCCC(C)Nc1ccnc2cc(N(C)C)ccc12 | H37Rv | BACTEC | MIC bound | - | >12.5 µg/mL |
| COc1ccc(/C=N/NC(=O)c2ccncc2)c(O)c1 | - | - | MIC | - | 1 µg/mL |
| Cc1ccc(-n2nnnc2SC(C)C)cc1C | H37Rv | - | MIC | - | 125 µM |
| N#CC(Nc1ccc(F)cc1)c1ccc(OCc2nc3ccccc3[nH]2)cc1 | H37Rv | resazurin | MIC | - | 1.56 µg/mL |
| CCCOc1ccc(/C=N/NC(=O)c2ccncc2)cc1 | - | - | MIC | - | 1 µg/mL |
| Cc1noc(NS(=O)(=O)c2ccc(N=Nc3ccc(O)cn3)cc2)c1C | H37Rv | BACTEC | inhibition | 12.5 µg/mL | 0% |
| COc1ccc(-c2oc3cc(O)cc(O)c3c(=O)c2OC)cc1 | H37Rv | BACTEC | EC50 | - | <100 µg/mL |
| Cc1ccc([N+](=O)[O-])cc1NC(=O)NNC(=O)CNC(=O)NCc1ccco1 | H37Rv | BACTEC | inhibition | 12.5 µg/mL | 0% |
| O=C(NNC1=NS(=O)(=O)c2ccccc2N1c1ccccc1)c1ccncc1 | Clinical isolates drug-sensitive | - | MIC | - | >16 µg/mL |
| O=C1C(=O)N(c2ccccc2)C(=S)N1c1ccccc1 | B814 | - | MIC | - | 100 µg/mL |
| CCCCCCC(/C=C/c1ccc(Cl)c(Cl)c1)=N\NC(=O)C(N)=O | H37Rv | BACTEC | inhibition | 12.5 µg/mL | 10% |
| CO[C@H]1/C=C/O[C@@]2(C)Oc3c(C)c(O)c4c(O)c(c(/C=N/N5CCN(C/C=C/c6ccccc6)CC5)c(O)c4c3C2=O)NC(=O)/C(C)=C\C=C\[C@H](C)[C@H](O)[C@@H](C)[C@@H](O)[C@@H](C)[C@H](OC(C)=O)[C@@H]1C | 2257 | - | MBC | - | 0.12 µg/mL |
| O=C(CSc1nnc(-c2ccncc2)n1-c1ccc(Br)cc1)c1ccccc1 | H37Rv | - | MIC | - | >6.25 µg/mL |
| COc1ccc(C2OC(c3sc4ccc(Cl)cc4c3Cl)=NN2C(C)=O)cc1OC | - | agar diffusion / agar | inhibition | 40 µg/mL | 2% |
| CN1CCSC1=[Se] | B814 | - | MIC | - | 100 µg/mL |
| N#Cc1c(N)[n+]([O-])c2ccccc2[n+]1[O-] | H37Rv (ATCC 27294) | resazurin | MIC | - | 156.3 µM |
| C/C(CCC(=O)O)=N\NC(=O)c1ccncc1 | - | - | MIC | - | 10 µg/mL |
| CN1c2ccccc2C(=O)NC1c1ccc([N+](=O)[O-])s1 | H37Rv | resazurin | MIC bound | - | >6.25 µg/mL |
| CC1CN(c2c(F)cc3c(=O)c(C(=O)O)cn(C4CC4)c3c2O)CCN1.[Cl][Rh]([Cl])[Cl] | ATCC 27294 | agar diffusion | zone | 0.2 µg/mL | 15 mm |
| CCCCCCCCCCCc1c(O)c(=O)c2c(oc3c(=O)c(CCCCCCCCCCC)c(O)c(=O)c3n2-c2ccc(N(C)C)cc2)c1=O | H37Rv | BACTEC | MIC | - | ≥12.8 µg/mL |
| O=C(N/N=C/c1cccc(O)c1)c1ccncc1 | - | - | MIC | - | 0.1 µg/mL |
| NNC(=O)c1ccncc1 | ATCC 35338 | resazurin | MIC | - | <0.06 µg/mL |
| O=C(O)C1C2OC(C(Cl)C2Cl)C1C(=O)O | H37Rv | BACTEC | MIC bound | - | >12.5 µg/mL |
| COc1ccc2nc(Cl)c(C3OC(c4sc5ccc(Cl)cc5c4Cl)=NN3C(C)=O)cc2c1 | - | agar diffusion / agar | inhibition | 40 µg/mL | 4% |
| CC(=O)Nc1ccc(/C=N/NC(=O)c2ccncc2)cc1 | - | - | MIC | - | 0.1–1 µg/mL |
| NNC(=O)c1ccncc1 | H37Rv | - | MIC | - | <0.05 µg/mL |
| Cc1nc(-c2ccccc2)oc1C(N)=O | H37Rv | BACTEC | inhibition | 12.5 µg/mL | -9% |
| CN1C(NNC(=O)c2ccc(Cl)nc2)=NS(=O)(=O)c2ccccc21 | H37Rv (ATCC 27294) | - | MIC | - | >16 µg/mL |
| Cc1ccccc1-c1nc2c3c(c4ccccc4c2[nH]1)OC(C)(C)CC3 | ATCC 4.5 | resazurin | MIC | - | 4.5 µg/mL |
| Fc1ccc(-n2c(-c3ccncc3)n[nH]c2=S)cc1 | H37Rv | - | inhibition | 6.25 µg/mL | 2% |
| NC(=N\N=C(/c1ccccc1)c1ccc(N)cc1)/C(N)=N/N=C(\c1ccccc1)c1ccc(N)cc1 | H37Rv | BACTEC | inhibition | 12.5 µg/mL | 8% |
| COc1cc(C2OC(c3sc4ccc(Cl)cc4c3Cl)=NN2C(C)=O)cc(OC)c1OC | - | agar diffusion / agar | inhibition | 40 µg/mL | 0% |
| CO[C@H]1/C=C/O[C@@]2(C)Oc3c(C)c(O)c4c(O)c(c(/C=N/N5CCN(C)CC5)c(O)c4c3C2=O)NC(=O)/C(C)=C\C=C\[C@H](C)[C@H](O)[C@@H](C)[C@@H](O)[C@@H](C)[C@H](OC(C)=O)[C@@H]1C | 23 strains (rifampicin-resistant) | - | MIC50 | - | 50 µg/mL |
| NC1CN(c2c(F)cc3c(=O)c(C(=O)O)cn(C4CC4)c3c2Cl)CC12CC2 | 43 (RFP-susceptible) | - | MIC | - | 0.78 µg/mL |
| O=C(N/N=C/c1ccc(Cl)cc1)c1ccncc1 | - | - | MIC | - | 0.1 µg/mL |
| CCN1C(NNC(=O)c2cnccn2)=NS(=O)(=O)c2ccccc21 | H37Rv (ATCC 27294) | - | MIC | - | 8 µg/mL |
| O=C(Nc1ccc(C2=NCCCN2)cc1)c1ccc(C(=O)Nc2ccc(C3=NCCCN3)cc2)nc1 | KM-R | - | MIC | - | 12.5 µg/mL |
| CCCCCCOC(=O)[C@H](Cc1c[nH]c2ccccc12)NC(=O)N[C@@H](Cc1ccc2ccccc2c1)C(=O)N[C@H](C(=O)NC[C@H]1C[C@@H](O)[C@H](n2ccc(=O)[nH]c2=O)O1)[C@H](C)N(C)C(=O)CN | H37Rv | resazurin / fluorescence | MIC99 | - | 0.076 µM |
| Nc1nc(N)c(N=O)c(Nc2cccc(Br)c2)n1 | H37Rv | BACTEC | MIC bound | - | >12.5 µg/mL |
| COc1cccc(/C=N/NC(=O)c2cccnc2)c1O | - | - | MIC | - | <1 µg/mL |
| CN1C(NC(=O)c2cnccn2)=NS(=O)(=O)c2cc(Cl)ccc21 | H37Rv (ATCC 27294) | - | MIC | - | >16 µg/mL |
| Cc1ccccc1NC(C#N)c1ccc(OCc2nc3ccccc3[nH]2)cc1 | H37Rv | resazurin | inhibition | 6.25 µg/mL | 45% |
| CSC(=S)N/N=C/c1cccc(C)n1 | H37Rv | BACTEC | MIC | - | 128 µg/mL |
| CCCCCCCCCCCCOC(=O)[C@H](Cc1c[nH]c2ccccc12)NC(=O)N[C@@H](CC1CCCCC1)C(=O)N[C@H](C(=O)NC[C@H]1C[C@@H](O)[C@H](n2ccc(=O)[nH]c2=O)O1)[C@H](C)N(C)C(=O)CN | H37Rv | resazurin / fluorescence | MIC99 | - | 0.625 µM |
| CO[C@@H]1C[C@@H](C[C@H]2CC[C@H](C)[C@H]([C@@H](C)C(=O)O)O2)O[C@]2(O[C@](C)([C@H]3CC[C@@](C)([C@@H]4O[C@@H]([C@H]5O[C@@](O)(CO)[C@H](C)C[C@@H]5C)C[C@@H]4C)O3)C[C@H]2C)[C@@H]1C | RMP-R | - | MIC | - | 3.1 µg/mL |
| CCSc1nnnn1-c1c(C)cc(C)cc1C | H37Rv | - | MIC | - | >1000 µM |
| CC1(C)Nc2cccc3c(N=Nc4ccc(N=Nc5ccccc5)c5ccccc45)ccc(c23)N1 | KM-R | - | MIC | - | 2 µg/mL |
| O=C(N/N=C/c1ccccc1O)c1cccnc1 | - | - | MIC | - | 100 µg/mL |
| C[n+]1cccc2c(=O)c3ccccc3oc21 | H37Rv | BACTEC | MIC bound | - | >12.5 µg/mL |
| C[C@@H]([C@H](NC(=O)[C@H](Cc1ccc2ccccc2c1)NC(=O)N[C@@H](Cc1c[nH]c2ccccc12)C(=O)OCc1ccccc1)C(=O)NC[C@H]1C[C@@H](O)[C@H](n2ccc(=O)[nH]c2=O)O1)N(C)C(=O)CN | H37Rv | resazurin / fluorescence | MIC50 | - | 0.015 µM |
| Nc1nnc2nc(C(C(=O)c3ccccc3Cl)c3nc4nnc(N)n4[nH]c3=O)c(=O)[nH]n12 | H37Rv | BACTEC | MIC bound | - | >12.5 µg/mL |
| Cc1ccc(Cl)cc1N=Nc1c(C)[nH]n(C(=O)c2sc3ccc(Cl)cc3c2Cl)c1=O | - | agar diffusion / agar | inhibition | 40 µg/mL | 28% |
| S=C(S)N1CCC(CC2CCN(C(=S)S)CC2)CC1 | H37Rv | BACTEC | inhibition | 12.5 µg/mL | 6% |
| CCN1C(=O)C(=O)N(CC)C1=[Se] | B814 | - | MIC | - | 1.25 µg/mL |
| CC1CC2=Cc3c(O)c(O)cc(O)c3C(=O)C2=CO1 | H37Rv | BACTEC | MIC | - | ≥12.5 µg/mL |
| CN1C(NNC(=O)c2cccnc2)=NS(=O)(=O)c2ccccc21 | H37Rv (ATCC 27294) | - | MIC | - | >16 µg/mL |
| CCCCCCC1(/C=C/c2ccc(Cl)c(Cl)c2)OCCS1 | H37Rv | BACTEC | MIC bound | - | >12.5 µg/mL |
| CN1C(NNC(=O)c2ccncc2)=NS(=O)(=O)c2ccccc21 | H37Rv (ATCC 27294) | - | MIC | - | >16 µg/mL |

11 of the rows above, restated:

SMILES	strain or isolate	read by	endpoint	dose	result
COc1cccc(/C=N/NC(=O)c2cccnc2)c1O	-	-	MIC	-	<1 µg/mL
CSC(=S)N/N=C/c1cccc(C)n1	H37Rv	BACTEC	MIC	-	128 µg/mL
O=C(Nc1ccc(C2=NCCCN2)cc1)c1ccc(C(=O)Nc2ccc(C3=NCCCN3)cc2)nc1	KM-R	-	MIC	-	12.5 µg/mL
CCN1C(NNC(=O)c2cccnc2)=NS(=O)(=O)c2ccccc21	Clinical isolates drug-resistant	-	MIC	-	>16 µg/mL
O=C1C(=O)N(c2ccccc2)C(=S)N1c1ccccc1	B814	-	MIC	-	100 µg/mL
N#CC(Nc1ccc(F)cc1)c1ccc(OCc2nc3ccccc3[nH]2)cc1	H37Rv	resazurin	MIC	-	1.56 µg/mL
N#Cc1c(N)[n+]([O-])c2ccccc2[n+]1[O-]	H37Rv (ATCC 27294)	resazurin	MIC	-	156.3 µM
Nc1nnc2nc(C(C(=O)c3ccccc3Cl)c3nc4nnc(N)n4[nH]c3=O)c(=O)[nH]n12	H37Rv	BACTEC	MIC bound	-	>12.5 µg/mL
N#Cc1c(N)[n+]([O-])c2cc(C(F)(F)F)ccc2[n+]1[O-]	H37Rv (ATCC 27294)	resazurin	MIC	-	39 µM
CC1(C)CCc2c(c3ccccc3c3nc(-c4cccc(C#N)c4)oc23)O1	ATCC 35338	resazurin	MIC	-	17.6 µg/mL
O=C(N/N=C/c1ccccc1O)c1cccnc1	-	-	MIC	-	100 µg/mL